A mixed list of measured activities; the numbers were collected in NIAID ChemDB.

All rows: tests on isolated targets; species: Hepatitis C virus; target: Nonstructural protein 3 protease

ICn: concentration for n% inhibition.

structure,strain,endpoint,method,dose,result
CCC[C@H](NC(=O)[C@@H]1C2CCCC2CN1C(=O)[C@@H](NC(=O)[C@@H](NC(=O)c1cnccn1)C(C)CC)C(C)(C)C)C(=O)C(=O)NC1CC1,-,Ki,-,-,0.18 µM
CC(C)[C@H](NC(=O)OC(C)(C)C)C(=O)N1CC[C@H]2[C@H]1C1(CCCC1)C(=O)N2C(=O)C1CC1,-,IC50,-,-,2.5 µM
CC(=O)N1C(=S)NC2=C(CCc3ccccc32)C1c1cccs1,NS3-4A,IC50,PCR,-,0.288 µM
CCCCCCCCCCCC1=C(O)C(=O)C=C(O)C1=O,-,inhibition,-,100 µM,96.6%
CCC[C@H](NC(=O)[C@@H]1[C@H]2CCC[C@H]2CN1C(=O)[C@@H](NC(=O)[C@@H](NC(=O)c1cnccn1)C1CCCCC1)C(C)(C)C)C(=O)C(=O)N[C@@H](C)C1CCCCC1,-,Ki,-,-,2.7 µM
CC(C)[C@H](NC(=O)OC(C)(C)C)C(=O)N1CC[C@H]2[C@H]1[C@H](C)C(=O)N2C(=O)C1CC1,-,IC50,-,-,97 µM
CC[C@@H]1C[C@]1(NC(=O)[C@@H]1C[C@@H](Oc2cc(-c3csc(NC(C)C)n3)nc3c(Cl)c(OCCN4CCOCC4)ccc23)CN1C(=O)[C@@H](NC(=O)OC1C[C@@H]2C[C@@H]2C1)C(C)(C)C)C(=O)O,gt 3,Ki,fluorescence,-,0.319 µM
CCCC(NC(=O)[C@@H]1C2CCC(C2)N1C(=O)[C@@H](NC(=O)OC(C)(C)C)C1CCCCC1)C(=O)C(=O)NCC(=O)N[C@@H](C(=O)N(C)C)c1ccccc1,-,Ki,-,-,0.09 µM
CCC[C@H](NC(=O)[C@@H]1[C@H]2CCC[C@H]2CN1C(=O)[C@@H](NC(=O)[C@@H](NC(=O)c1cnccn1)C1CCCCC1)C(C)(C)C)C(=O)C(=O)N[C@@H](C)Cc1ccc(C)cc1,-,Ki,-,-,0.136 µM
CC(C)[C@H](NC(=O)OC(C)(C)C)C(=O)N1CC[C@H]2[C@H]1C(C1CCC1)C(=O)N2S(C)(=O)=O,-,IC50,-,-,4.4 µM
CC(C)[C@H](NC(=O)OC(C)(C)C)C(=O)N1CC[C@H]2[C@H]1C(C)(C)C(=O)N2S(C)(=O)=O,-,IC50,-,-,34 µM
CC1O[C@@H](Oc2c(-c3ccc(O)c(O)c3)oc3cc(O)cc(O)c3c2=O)[C@H](O)[C@H](O)[C@H]1C,-,IC50,-,-,>100 µM
O=C(O)CSc1nc(-c2cccs2)c2c(n1)-c1ccccc1CC2,NS3-4A,IC90,PCR,-,0.501 µM
CCC[C@H](NC(=O)[C@@H]1C2CCCC2CN1C(=O)[C@@H](NC(=O)[C@@H](NC(=O)c1cnccn1)C(C)(C)C)C(C)(C)C)C(=O)C(=O)NC1CC1,-,Ki,-,-,0.17 µM
CCCC(NC(=O)[C@@H]1C2CCCC2CN1C(=O)[C@@H](NC(=O)[C@@H](NC(=O)c1cnccn1)[C@@H](C)CC)C(C)(C)C)C(=O)C(=O)NC1CC1,-,Ki,-,-,0.089 µM
CC(C)[C@H](NC(=O)OC(C)(C)C)C(=O)N1CC[C@H]2[C@H]1C(C)(C)C(=O)N2S(C)(=O)=O,-,IC50,-,-,34 µM
CCCC(NC(=O)[C@@H]1C2CCCC2CN1C(=O)[C@@H](NC(=O)[C@@H](NC(=O)c1cnccn1)C1CCCCC1)C(C)(C)C)C(=O)C(=O)N[C@@H](C)CC,-,Ki,-,-,0.136 µM
O=c1oc2c(O)c(O)cc3c(=O)oc4c(O)c(O)cc1c4c23,-,IC50,fluorescence,-,56.3 µM
CC(C)[C@H](NC(=O)OC(C)(C)C)C(=O)N1CC[C@H]2[C@H]1C(C1CCCC1)C(=O)N2S(C)(=O)=O,-,IC50,-,-,31 µM
O=C(O)C[C@@H]1C(=O)O[C@H]2[C@@H]3OC(=O)c4cc(O)c(O)c(O)c4-c4c(cc(O)c(O)c4O)C(=O)OC[C@H]2O[C@@H](OC(=O)c2cc(O)c(O)c(O)c2)[C@@H]3OC(=O)c2cc(O)c(O)c3c2[C@H]1[C@H](O)C(=O)O3,-,IC50,fluorescence,-,5.2 µM
O=C(CSc1nc(-c2cccs2)c2c(n1)-c1ccccc1CC2)NN1C(=O)c2ccccc2C1=O,NS3-4A,IC50,PCR,-,0.145 µM
O=C(O)C1=CC(OC(=O)c2cc(O)c(O)c(O)c2)C(O)[C@H](O)C1,-,IC50,fluorescence,-,214.7 µM
CC(C)[C@H](NC(=O)OC(C)(C)C)C(=O)N1CC[C@H]2[C@H]1C(C)(C)C(=O)N2C(=O)C1CC1,-,IC50,-,-,3 µM

The last 3 rows once more:

| structure | strain | endpoint | method | dose | result |
|---|---|---|---|---|---|
| O=C(CSc1nc(-c2cccs2)c2c(n1)-c1ccccc1CC2)NN1C(=O)c2ccccc2C1=O | NS3-4A | IC50 | PCR | - | 0.145 µM |
| O=C(O)C1=CC(OC(=O)c2cc(O)c(O)c(O)c2)C(O)[C@H](O)C1 | - | IC50 | fluorescence | - | 214.7 µM |
| CC(C)[C@H](NC(=O)OC(C)(C)C)C(=O)N1CC[C@H]2[C@H]1C(C)(C)C(=O)N2C(=O)C1CC1 | - | IC50 | - | - | 3 µM |

An empty or dashed field is not shown. Neighbouring rows are from separate reports. Percent inhibition refers to the dose given; in toxicity tests it is the harm to the cells.